Measurements: patent US10076533B2, “Acyclic nucleoside phosphonate diesters” (The Regents of the University of California, priority 2013, dated 2018)
The index is printed as in the source, without its formula.

What was measured:
HIV-192US727 = experiment: Anti-HIV assay in human PBMC, supernatant reverse transcriptase activity; settings: HIV-192US727, human PBMC
HPV-11 = HPV-11 origin replication in HEK 293 cells, qPCR; assay type: cell-based; settings: HPV-11, HEK 293 cells
Description: An origin-containing plasmid was co-transfected with HPV-11 E1 and E2 protein expression vectors into HEK 293 cells. At 4 hr post-transfection, cells were treated with compound dilutions and the cells were incubated for 48 hr. Replication of the virus origin was detected with DpnI and exonuclease III to remove unreplicated input bacterial plasmid DNA. Remaining replicated DNA was quantified by qPCR. Toxicity was determined by trypan blue exclusion.

[1] = system: Copenhagen strain of vaccinia virus; assay type: cell-based; settings: HFF cells
[2] = system: AD169 strain of human cytomegalovirus; experiment: Antiviral effect in HFF cells infected with human cytomegalovirus (AD169)
MAD-1 strain of JC virus = experiment: Antiviral effect in JC virus (MAD-1) infected COS7 cells, qPCR
[3] = system: BK virus (Gardner strain); experiment: Antiviral effect in HFF cells infected with BK virus (Gardner strain), qPCR

Compound	Selectivity Index (HIV-192US727)	Selectivity Index (HPV-11)	Selectivity Index [1]	Selectivity Index [2]	Selectivity Index (MAD-1 strain of JC virus)	Selectivity Index [3]
CCCCCCCCCCCCCCCCCCOCCOP(=O)(CO[C@H](C)Cn1cnc2c(N)ncnc21)Oc1ccccc1 (stereo partly drawn) [Compound 92, phenyl octadecyloxyethyl 9-(R)-[(2-phosphonomethoxy)propyl]adenine]	>4820					
CCCCCCCCCCCCCCCCCCOC[C@H](COP(=O)(CO[C@H](CO)Cn1ccc(N)nc1=O)OCc1ccccc1)OCc1ccccc1 (stereo partly drawn) [Compound 231, benzyl 1-O-octadecyl-2-O-benzyl-sn-glyceryl 1-(S)-[3-hydroxy-2-(phosphonomethoxy)propyl]cytosine]	>63.3	>6.41	>435	>633	<3	>443
CCCCCCCCCCCCCCCCCCOC[C@H](COP(=O)(CO[C@H](CO)Cn1cnc2c(N)ncnc21)OCc1ccccc1)OCc1ccccc1 (stereo partly drawn) [Compound 230, benzyl 1-O-octadecyl-2-O-benzyl-sn-glyceryl 9-(S)-[(3-hydroxypropyl-2-phosphonomethoxy)propyl]adenine]	>5.5	>17.9	1625	>124	<4.6	327
CCCCCCCCCCCCCCCCOCCCOP(=O)(COCCn1cnc2c(=O)[nH]c(N)nc21)Oc1ccccc1 (centres unmarked) [Compound 25, phenyl hexadecyloxypropyl 9-(2-phosphonomethoxyethyl)guanine]	>125					
